Values quoted from earlier work, collected in patent publication US6809181B2, “Human beta-defensin-3 (HBD-3), a highly cationic beta-defensin antimicrobial peptide” (University of Iowa Research Foundation, priority 2000, dated 2004).

Test system: Legionella spp.
Design: unit not given beside the values
Details: cited from earlier work

## CC[C@H]1OC(=O)[C@H](C)[C@@H](O[C@H]2C[C@@](C)(OC)[C@@H](O)[C@H](C)O2)[C@H](C)[C@@H](O[C@@H]2O[C@H](C)C[C@H](N(C)C)[C@H]2O)[C@](C)(O)C[C@@H](C)C(=O)[C@H](C)[C@@H](O)[C@]1(C)O [ERYTHROMYCIN, erythromycin]
  MIC90: 0.25
